{"source": "patent US20180003631A1", "binders": {"B1": {"name": "CssIV from Centruroides suffusus suffusus, P60266 20-85 (peptide)", "chain": "KEGYLVNSYTGCKFECFKLGDNDYCLRECRQQYGKGSGGYCYAFGCWCTHLYEQAVVWPLPNKTCN", "modifications": "not checked"}}, "biological_target": "T1, rNav1.2a/Kv2.1 VSD II paddle chimera (rat), P15387", "T1 chain": "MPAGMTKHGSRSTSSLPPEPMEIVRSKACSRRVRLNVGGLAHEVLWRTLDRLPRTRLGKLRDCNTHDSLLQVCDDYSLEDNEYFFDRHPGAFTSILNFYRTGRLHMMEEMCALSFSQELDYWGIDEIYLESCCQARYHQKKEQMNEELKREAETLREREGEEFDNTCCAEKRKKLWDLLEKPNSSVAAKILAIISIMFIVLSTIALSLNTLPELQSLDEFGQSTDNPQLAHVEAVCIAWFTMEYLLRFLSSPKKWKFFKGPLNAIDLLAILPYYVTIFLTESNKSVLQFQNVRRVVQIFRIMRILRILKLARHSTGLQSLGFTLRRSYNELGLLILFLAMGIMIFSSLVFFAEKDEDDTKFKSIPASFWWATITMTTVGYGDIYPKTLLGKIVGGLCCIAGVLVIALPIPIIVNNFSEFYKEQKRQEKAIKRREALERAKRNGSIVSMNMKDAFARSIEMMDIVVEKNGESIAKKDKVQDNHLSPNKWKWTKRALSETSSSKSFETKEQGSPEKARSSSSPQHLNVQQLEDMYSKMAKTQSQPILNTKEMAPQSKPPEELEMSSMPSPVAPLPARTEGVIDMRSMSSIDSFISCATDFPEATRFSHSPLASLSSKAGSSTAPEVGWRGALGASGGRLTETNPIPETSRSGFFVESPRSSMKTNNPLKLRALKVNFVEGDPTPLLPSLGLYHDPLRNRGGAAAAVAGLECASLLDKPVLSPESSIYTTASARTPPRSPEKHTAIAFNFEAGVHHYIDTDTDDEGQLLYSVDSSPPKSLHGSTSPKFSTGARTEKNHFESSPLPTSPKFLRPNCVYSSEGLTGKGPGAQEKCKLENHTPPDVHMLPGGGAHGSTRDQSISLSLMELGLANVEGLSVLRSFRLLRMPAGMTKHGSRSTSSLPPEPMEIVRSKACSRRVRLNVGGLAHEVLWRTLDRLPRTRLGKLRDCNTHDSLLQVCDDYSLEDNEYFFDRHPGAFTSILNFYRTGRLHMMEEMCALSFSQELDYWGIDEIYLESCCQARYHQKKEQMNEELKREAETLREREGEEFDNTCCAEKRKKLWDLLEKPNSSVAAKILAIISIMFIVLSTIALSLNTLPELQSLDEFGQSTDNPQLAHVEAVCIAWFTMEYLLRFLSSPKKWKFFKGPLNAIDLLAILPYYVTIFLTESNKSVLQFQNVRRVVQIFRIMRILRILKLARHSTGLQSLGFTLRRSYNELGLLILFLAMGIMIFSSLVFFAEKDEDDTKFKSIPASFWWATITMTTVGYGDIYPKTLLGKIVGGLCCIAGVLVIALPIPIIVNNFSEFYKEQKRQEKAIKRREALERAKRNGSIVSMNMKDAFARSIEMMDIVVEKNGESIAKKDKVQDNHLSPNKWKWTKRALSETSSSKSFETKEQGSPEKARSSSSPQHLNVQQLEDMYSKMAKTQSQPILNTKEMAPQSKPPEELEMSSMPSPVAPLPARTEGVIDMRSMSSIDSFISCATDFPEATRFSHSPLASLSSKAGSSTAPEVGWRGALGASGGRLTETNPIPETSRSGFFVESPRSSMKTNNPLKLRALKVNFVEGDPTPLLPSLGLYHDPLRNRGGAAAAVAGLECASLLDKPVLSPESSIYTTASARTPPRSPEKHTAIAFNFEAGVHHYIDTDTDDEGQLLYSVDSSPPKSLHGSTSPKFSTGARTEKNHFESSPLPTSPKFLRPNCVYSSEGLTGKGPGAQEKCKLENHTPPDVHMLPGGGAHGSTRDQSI", "assay": "cell-based or functional assay", "data": [{"binder": "B1", "values": [{"measurement": "depolarizing shift in V1/2 at 1 µM toxin", "result": 14, "unit": "mV"}]}]}
